According to US20140296141A1 (NEW YORK UNIVERSITY, published 2014):

Target: T1, HIV-1 gp41 fusion peptide N36 (HIV-1, N-terminal acetyl (Ac-), C-terminal amide (-NH2))
T1 construct: Synthetic peptide, HPLC purified; In the six-helix bundle (6HB) three N36 helices form the trimeric coiled-coil core; also called NHR peptide N36; gp41 N-terminal heptad repeat peptide N36
Test: native PAGE mobility shift, equimolar peptides in PBS at 37 C

B1: HIV-1 gp41 fusion peptide C34 (peptide)
peptide: not shown
modifications: N-terminal acetyl (Ac-), C-terminal amide (-NH2)
notes: Synthetic peptide, HPLC purified; In the six-helix bundle (6HB) three C34 helices surround the N36 trimeric core; also called CHR peptide C34
- binding result: binds
